Data: a compilation of properties of binary mixtures (doi:10.1016/j.molliq.2020.112597)

Assay: xn = mol fraction of the nth substance listed
Conditions: 101.3 kPa, x1 = 0.19

CCC[N+]1(C)CCCC1.N#C[N-]C#N + O=S(=O)(F)[N-]S(=O)(=O)F.[Na+]
Conditions	electrical conductivity [S/m]	mass density [kg/m3]	viscosity [mPa·s]
262.35 K	0.3	–	–
272.55 K	0.49	–	–
282.35 K	–	–	59.8
282.75 K	0.74	–	–
283.05 K	–	1074.3	–
292.65 K	1.06	–	–
293.35 K	–	1068	–
296.15 K	–	–	41.8
303.45 K	–	1062	–
309.05 K	–	–	29.9
312.85 K	1.87	–	–
313.25 K	–	1056.2	–
320.65 K	–	–	22.9
322.55 K	2.39	–	–
323.25 K	–	1050.2	–
332.15 K	–	–	18.2
332.35 K	2.84	–	–
342.35 K	–	–	14.2
343.25 K	–	1037.9	–
352.65 K	3.98	–	11.5
353.45 K	–	1033	–
362.35 K	4.54	–	–
362.45 K	–	–	9.3
371.05 K	–	–	7.8
372.75 K	5.33	–	–
382.45 K	5.79	–	–
391.45 K	6.6	–	–
